According to patent US20180214569A1 (Regeneron, published 2018):

B1: H1H15375P (antibody, V domains shown)
VH: QVQLVESGGGGVQPGRSLRLSCEASGFTFSDYGMQWVRQAPGKGLEWVAVIWDDGRKKYYADSVKGRFTVSRDNSKNTLYLEINSLRVEDTAVYYCAREGSSSSGRYFLYGMDVWGQGTTVTVSS
VL: DIQMTQSPSSLSASVGDRVTITCRASQRISSYLNWYQQKLGKAPKLLISVASSLQSGVPSRFSGSGSGTDFTLTISSLQPEDFGIYYCQQSYNTPPWTFGQGTKVEIK
B2: H1H15405P (antibody, V domains shown)
VH: EVQLVESGGGLVQPGGSLRLSCGASGFTFSYYWMTWVRQAPGKGLEWVANINQDGSEKFYVDSVRGRFTISRDNAKKSLYLQMNSLRAEDTAVYYCARDGYCSSIGCYNLYGMDVWGQGTTVTVSS
VL: DIQMTQSPSSLSASVGDRVTITCRASQNINKYLNWYQQKPGQAPKLLIYTTSSLQSGVPSRFSGSGSGTDFTLTISSLQPEDFATYSCQQSYNSPLTFGGGTKVEIK
B3: H1H15408P (antibody, V domains shown)
VH: EVQLVESGGGLVQPGGSLRLSCAASGFTFSRYDMSWVRQAPGKGLEWVSAISYSGDSTYYADSVQGRFTISRDNSKNTLYLQMNSLRAEDTALYHCAKDNGYSGTYYYYYGMDVWGQGTTVTVSS
VL: DIQMTQSPSSLSASVGDRVTITCRASQGISNYLAWFQQKPGKAPKFLIYAASSLQSGVPSKFSGSGSGTDFTLTISSLQPEDFATYYCQQYNSYPYTFGQGTKLEIK
B4: H1H15410P (antibody, V domains shown)
VH: QVQLQESGPGLVKPSETLSLTCTVSGGSISGYFWGWVRQPPGKGLEWIGYIFYSGSTNYNPSLKSRITLSVDTSKNQFSLKLSSVTAADTAIYYCARHREYYGSGNYRYYALDVWGQGTTVTVSS
VL: AIQMTQSPSSLSASVGDRVTITCRASQGIRDDLGWYQQKPGKAPKLLIYAASSLQSGVPSRFSGSGSGTDFTLTISSLQPEDFATYYCLQDYNFPLTFGQGTKVEIK
B5: H1H15414P (antibody, V domains shown)
VH: EVQLVESGGDLVQPGGSLRLSCAASGFTFSSFEMNWVRQAPGKGLEWVSYISSSGSTIYYADSVKDRFTVSRDKDKNSLYLQMNSLRAEDTAVYYCARGSWNQPYFDYWGQGTLVTVSS
VL: DIQMTQSPSTLSASVGDRVTITCRASQSISSWLAWYQLKPGKAPKVLIYKASSLESGVPSRFSGSGSGTEFTLTINSLQPDDFATYYCQQYNSWTFGQGTKVEIK
B6: H1H15418P2 (antibody, V domains shown)
VH: QVQLVESGGGLVRPGGSLRLSCEASGFTFNEHYMSWIRQAPGKGLEWVAFISSGGSIIYYADSVKGRFTISRDSAKNSLYLQMNSLRPEDTAIYYCAREPFGGIIVFDYWGQGTLVTVSS
VL: not shown
B7: H1H15420P2 (antibody, V domains shown)
VH: QVQLQESGLGLVKPSETLSLTCTVSGDSIGTYYWSWIRQPPGKGLEWIAYIYDSRHSNSNPSLKSRVTTSVDMSKNQFSLQLKSVTAADTAVYFCARDWGTWKPEGAFDIWGQGTMVTVSS
VL: not shown
B8: H1H15376P (antibody, V domains shown)
VH: QVQLQQSGPGLVKPSQTLSLTCAISGDSVASNNAAWNWIRQSPSRGLEWLGRTYYRSKWFNDYVESVKSRISFNPDTSKNQFSLQLNSVTPEDTAVYYCARSYYDFWSGYSENNYYFYGMDVWGQGTTVTVSS
VL: DIQMTQSPSSLSASVGDRVSITCRTSQGIRNDLGWYQQKPGKAPKRLIYAASSLQSGVPSRFSGSGSGTEFTLTISSLQPEDFATYYCLQHNIYPPTFGQGTKVEIK
B9: H1H15377P (antibody, V domains shown)
VH: EVQLVESGGGLVQPGGSLRLSCAASGFTFTSYEMNWVRQAPGKGLEWISYISSGGDTKYYADSVRGRFTISRDNAKNSLYLQMNSLRAEDTALYYCARDVLNWVFDYWGRGTLVTVSS
VL: DIQMTQSPSSLSASVGDRVTITCRASQSIGKYLNWYRQSPGKAPKLLIYATSSLQSGVPSSFSGSGSGTDFTLTISSLQPEDFATYYCQQGFRTPFTFGPGTKVDIK
B10: H1H15378P (antibody, V domains shown)
VH: EVQLVESGGGLVQPGGSLRLSCAASGFTFNNYEMNWVRQAPGKGLEWVSFISSSGSTIDYAVSVKGRFTISRDNAKNSLYLQMNSLRPGDTAVYYCARARLDFYYYGMDVWGQGTTVTVSS
VL: DIQMTQSPSSLSASVGDRVTITCRASQGISNYLAWFQQKPGKAPKSLIYATSTLQSGVPSKFSGSGSGTDFTLTISSLQPEDFATYYCQQYNSFPLTFGGGTKVEIK
B11: H1H15380P (antibody, V domains shown)
VH: QVQLQESGPGLVKPSETLSLMCTVSGGSINNYYWSWIRQPPGKGLEWIGYIYNGGITKYNPSLKSRVTISVDTSKSQISLKLNSVTAADTAFYYCTKEQLERREGHIWFDPWGQGTLVTVSS
VL: DIQMTQSPSSLSASVGDRVTITCRASQTINNYLNWYHQKPGKAPKLLIYGTSSLQSGVPSRFSGSGSGTEFALTISSLQPEDFATYYCQQSSSTPYTFGQGTKLEIK
B12: H1H15381P (antibody, V domains shown)
VH: EVQLVESGGGLVQPGGSLRLSCAASGFTFSRYDMHWVRQVTGKGLEWVSVIGTAGDTYYPDSVKGRFTISRENAKNSLSLQMNSLRAGDTAVYYCTRSYNWNFPFGYWGQGTLVTVSS
VL: DIQMTQSPSTLSASVGDRVTITCRASQSISSWLAWYQQKPGKAPRLLIYEASSLETGVPSRFSGSGSGTEFTLTISSLQPDDFATYYCQQYNRYPWTFGQGTKVEIK
B13: H1H15399P (antibody, V domains shown)
VH: EVQLVESGGGLVQPGGSLRLSCAASGFTFSSSAMSWVRQAPGKGLEWVSTLNVGADSTFYAGSVRGRFTISRDNSKNTLFLQMNSLRAEDTAVYYCAKDWGGIPYYYYYYGMDVWGQGTTVTVSS
VL: DIQLTQSPSFLSASVGDRVTITCWASQGISSYLAWYQQKPGKAPNLLIYTASTLQSGVPSRFSGSGSGTEFTLTISSLQPEDFATYYCQQLNSYPLTFGGGTKVEIK
B14: H1H15404P (antibody, V domains shown)
VH: QVQLQESGPGLVKPSETLSLTCTVSGGSISGYFWGWIRQTPGKGLEWIGYIFYSGSTHYNPSFKSRVTMSVDTSKNQFALKLRSVTAADTAKYYCSRQREYYGSGNYRYFGMDVWGQGTTVTVSS
VL: AIQMTQSPSSLSASVGERVTITCRASQDIRDDLGWYQQRPGKAPNLLIYAASSLHSGVPSRFSGSGSGTDFTLTISSLQPEDFATYYCLQDYNYPWTFGQGTKVEIK

Legend:
[1] = molecular target: T1, mutant Hemolysin A (Hla-H35L) (Staphylococcus aureus); assay: SPR (Biacore T200), mAb captured via anti-human Fc, toxin injected, 25 C
[2] = molecular target: T2, wild type S. aureus Hemolysin A toxin (Staphylococcus aureus)
[3] = molecular target: T2, wild type S. aureus Hemolysin A toxin; assay: cell-based or functional assay
[4] = molecular target: T1, mutant Hemolysin A (Hla-H35L); assay: SPR (Biacore T200), mAb captured via anti-human Fc, toxin injected, 37 C

| Binder | Kd [1] | koff [1] | kon [1] | t1/2 [1] | Kd [2] | koff [2] | kon [2] | t1/2 [2] | IC50 [M] for Hemolysin A neutralization (THP-1 cytotoxicity assay) [3] | Kd [4] | koff [4] | kon [4] | t1/2 [4] |
| --- | --- | --- | --- | --- | --- | --- | --- | --- | --- | --- | --- | --- | --- |
| B1 | 0.665 nM | 0.000117 s⁻¹ | 176000 M⁻¹ s⁻¹ | 99 min | 2.12 nM | 0.000127 s⁻¹ | 60000 M⁻¹ s⁻¹ | 91 min | 3.96e-09 M | 1.19 nM | 0.00037 s⁻¹ | 311000 M⁻¹ s⁻¹ | 31 min |
| B2 | 0.237 nM | 5.82e-05 s⁻¹ | 246000 M⁻¹ s⁻¹ | 199 min | 0.862 nM | 6.69e-05 s⁻¹ | 77600 M⁻¹ s⁻¹ | 173 min | 5.37e-09 M | 0.354 nM | 0.000152 s⁻¹ | 430000 M⁻¹ s⁻¹ | 76 min |
| B3 | 2.03 nM | 0.000705 s⁻¹ | 347000 M⁻¹ s⁻¹ | 16 min | 7.62 nM | 0.000832 s⁻¹ | 109000 M⁻¹ s⁻¹ | 14 min | 6.41e-09 M | 6.68 nM | 0.00293 s⁻¹ | 438000 M⁻¹ s⁻¹ | 4 min |
| B4 | 2.63 nM | 0.000399 s⁻¹ | 152000 M⁻¹ s⁻¹ | 29 min | 8.22 nM | 0.000462 s⁻¹ | 56200 M⁻¹ s⁻¹ | 25 min | 5.89e-09 M | 9.72 nM | 0.00219 s⁻¹ | 226000 M⁻¹ s⁻¹ | 5 min |
| B5 |  |  |  |  | 0.318 nM | 0.000115 s⁻¹ | 362000 M⁻¹ s⁻¹ | 100 min | 1.72e-09 M |  |  |  |  |
| B6 | 0.188 nM | 7.43e-05 s⁻¹ | 396000 M⁻¹ s⁻¹ | 155 min | 0.849 nM | 0.000102 s⁻¹ | 120000 M⁻¹ s⁻¹ | 113 min | 2.47e-09 M | 0.403 nM | 0.000229 s⁻¹ | 568000 M⁻¹ s⁻¹ | 51 min |
| B7 | 0.0523 nM | 0.000119 s⁻¹ | 2.28e+06 M⁻¹ s⁻¹ | 97 min | 0.171 nM | 0.000131 s⁻¹ | 767000 M⁻¹ s⁻¹ | 88 min | 4.14e-09 M | 0.0747 nM | 0.000266 s⁻¹ | 3.56e+06 M⁻¹ s⁻¹ | 43 min |
| B8 | 3.43 nM | 0.00145 s⁻¹ | 422000 M⁻¹ s⁻¹ | 8 min | 16.4 nM | 0.00218 s⁻¹ | 133000 M⁻¹ s⁻¹ | 5 min | 7.45e-09 M | 9.32 nM | 0.00441 s⁻¹ | 473000 M⁻¹ s⁻¹ | 2.6 min |
| B9 | 0.367 nM | 0.000411 s⁻¹ | 1.12e+06 M⁻¹ s⁻¹ | 28 min | 1.02 nM | 0.000315 s⁻¹ | 309000 M⁻¹ s⁻¹ | 37 min | 1.76e-09 M | 0.864 nM | 0.00137 s⁻¹ | 1.59e+06 M⁻¹ s⁻¹ | 8 min |
| B10 | 8.89 nM | 0.00681 s⁻¹ | 766000 M⁻¹ s⁻¹ | 1.7 min | 26.2 nM | 0.00788 s⁻¹ | 301000 M⁻¹ s⁻¹ | 1.5 min | 1.07e-08 M | 17.8 nM | 0.0168 s⁻¹ | 943000 M⁻¹ s⁻¹ | 0.7 min |
| B11 | 0.279 nM | 0.000387 s⁻¹ | 1.39e+06 M⁻¹ s⁻¹ | 30 min |  |  |  |  | 7.84e-09 M | 0.695 nM | 0.00131 s⁻¹ | 1.88e+06 M⁻¹ s⁻¹ | 9 min |
| B12 | 0.54 nM | 0.00122 s⁻¹ | 2.26e+06 M⁻¹ s⁻¹ | 9 min |  |  |  |  | 4.21e-09 M | 1.9 nM | 0.00466 s⁻¹ | 2.45e+06 M⁻¹ s⁻¹ | 2.5 min |
| B13 | 0.1 nM | 0.0001 s⁻¹ | 998000 M⁻¹ s⁻¹ | 116 min |  |  |  |  | 1.31e-09 M | 0.196 nM | 0.000278 s⁻¹ | 1.42e+06 M⁻¹ s⁻¹ | 42 min |
| B14 | 1.1 nM | 0.000294 s⁻¹ | 268000 M⁻¹ s⁻¹ | 39 min |  |  |  |  | 6.31e-09 M | 5.41 nM | 0.00181 s⁻¹ | 335000 M⁻¹ s⁻¹ | 6 min |
